Assay results reported in patent US8216800B2, “Substrates for detecting peptidase activity and methods using the substrates” (Biomerieux, priority 2007, dated 2012).

Key:
Test in all cases: Peptidase activity detection on Columbia agar containing substrate
Format in all cases: cell-based
[1] = system: Pseudomonas aeruginosa NCTC 10662; settings: substrate 100 mg/l, 24 hours at 37° C., UV 360-365 nm
Experimental: (§1) 40 mg of each substrate are dissolved in 4 ml of dimethylformamide (DMF). This solution is completely taken up in 400 ml of Columbia agar autoclaved beforehand and kept molten at 50° C. The final concentration for each substrate is therefore 100 mg/l. Each of the media is distributed into 90 mm Petri dishes in a proportion of 20 ml per dish.
(§2) 18 microorganism strains derived from collections and belonging to various species of bacteria and of yeasts are inoculated onto these media by semi-quantitative isolation of 10 μl of a suspension at 0.5 McFarland diluted to 1/20. The media are incubated for 24 hours at 37° C., and then the colonies formed are examined visually under UV illumination at 360-365 nm.

[2] = system: Yersinia enterocolitica NCTC 11176; settings: substrate 100 mg/l, 24 hours at 37° C., UV 360-365 nm
Experimental: as §1, §2

[3] = system: Providencia rettgeri NCTC 7475; settings: substrate 100 mg/l, 24 hours at 37° C., UV 360-365 nm
Experimental: as §1, §2

[4] = system: Enterococcus faecalis NCTC 775; settings: substrate 100 mg/l, 24 hours at 37° C., UV 360-365 nm
Experimental: as §1, §2

[5] = system: Enterobacter cloacae NCTC 11936; settings: substrate 100 mg/l, 24 hours at 37° C., UV 360-365 nm
Experimental: as §1, §2

[6] = system: Burkholderia cepacia 1222; settings: substrate 100 mg/l, 24 hours at 37° C., UV 360-365 nm
Experimental: as §1, §2

[7] = system: Listeria monocytogenes NCTC 11994; settings: substrate 100 mg/l, 24 hours at 37° C., UV 360-365 nm
Experimental: as §1, §2

[8] = system: Staphylococcus aureus NCTC 6571; settings: substrate 100 mg/l, 24 hours at 37° C., UV 360-365 nm
Experimental: as §1, §2

[9] = system: Staphylococcus aureus NCTC 11939; settings: substrate 100 mg/l, 24 hours at 37° C., UV 360-365 nm
Experimental: as §1, §2

[10] = system: Escherichia coli NCTC 10418; settings: substrate 100 mg/l, 24 hours at 37° C., UV 360-365 nm
Experimental: as §1, §2

[11] = system: Enterococcus faecium NCTC 11047; settings: Enterococcus faecium NCTC 11047 (Table 2); substrate 100 mg/l, 24 hours at 37° C., UV 360-365 nm
Experimental: as §1, §2

[12] = system: Salmonella Typhimurium NCTC 74; settings: substrate 100 mg/l, 24 hours at 37° C., UV 360-365 nm
Experimental: as §1, §2

SMILES | color of the fluorescence [1] | color of the fluorescence [2] | color of the fluorescence [3] | color of the fluorescence [4] | color of the fluorescence [5] | color of the fluorescence [6] | color of the fluorescence [7] | color of the fluorescence [8] | color of the fluorescence [9] | color of the fluorescence [10] | color of the fluorescence [11] | color of the fluorescence [12]
C[C@H](N)C(=O)Nc1ccccc1-c1nc2cc(Cl)ccc2o1 [Substrate 4] | violet | blue | blue | blue | blue |  |  |  |  |  |  | 
NCC(=O)Nc1ccccc1-c1nc2ccccc2o1 [Substrate 3] | blue | blue | blue |  | blue | blue | green | green | green | blue |  | 
NCCC(=O)Nc1ccccc1-c1nc2ccccc2s1 [Substrate 18] | yellow |  |  |  |  |  |  |  |  | yellow |  | 
COc1cc(NC(=O)CCN)c(-c2nc3ccccc3o2)cc1OC [Substrate 11] | blue | blue | blue | blue | blue | blue | blue | blue |  | blue | blue | blue
C[C@H](N)C(=O)Nc1ccccc1-c1nc2ccccc2o1 [Substrate 1] | blue | blue | blue | blue | blue |  | green | green | green | blue | blue | blue
C[C@H](N)C(=O)Nc1cc2c(cc1-c1nc3ccccc3n1CCc1ccccc1)OCO2 [Substrate 16] |  |  | blue |  | blue | blue |  |  |  | blue |  | blue
C[C@H](N)C(=O)Nc1ccccc1-c1nc2ccccc2n1CCc1ccccc1 [Substrate 14] |  |  |  |  | purple |  |  |  |  |  |  | 
C[C@H](N)C(=O)Nc1ccccc1-c1nc2ccccc2s1 [Substrate 17] | yellow | yellow | blue |  | blue | yellow |  |  |  | blue |  | 
NCCC(=O)Nc1ccccc1-c1nc2ccccc2o1 [Substrate 2] | green | green | green | green | green | green | green |  |  | green | green | 
C[C@H](N)C(=O)Nc1ccc(Cl)cc1-c1nc2ccccc2s1 [Substrate 19] |  |  | blue |  | blue |  |  |  |  | blue |  | blue
